The text below walks through data of PMC12124432 (Angewandte Chemie (International Ed. in English), 2025).

Strings that start with PEPTIDE1 are HELM notation: dots part the residues, brackets hold end groups and non-standard residues.

This series is described as follows: general procedure: Fmoc solid-phase peptide synthesis; 2-chlorotrityl chloride (2-CTC) resin, 100-200 mesh, 1% DVB, 1.06 mmol/g (Aapptec), loaded with Fmoc-L-Lys-OAll via side; DIC/OxymaPure. To be noted: whole synthesis.
Turning to FA5-A6-C2-Gln-Dab(*)-Lys-C1-Lys-Lys-*, the isolated yield worked out at 11%.

As for “PEPTIDE1{[FA5].Y.Q.K.[Dab].Q.Q.K.K}$PEPTIDE1,PEPTIDE1,5:R3-9:R2$$$V2.0”, the isolated yield is 13%.

As to “PEPTIDE1{[FA7].K.K.Q.K.[Dab].N.Y.K}$PEPTIDE1,PEPTIDE1,6:R3-9:R2$$$V2.0”, the isolated yield came out at 7%.

Regarding “FA11-A2-Lys-Asn-Dab(*)-Lys-C3-Lys-C8-Lys-*”, the isolated yield is 4%.

For the substance “PEPTIDE1{[FA6].[C2].A.Y.R.[Dab].S.[C2].[C2].K}$PEPTIDE1,PEPTIDE1,6:R3-10:R2$$$V2.0”, the isolated yield was determined as 20%.

“PEPTIDE1{[FA0].[Dab].T.[Dab].[Dab].[Dab].[dF].L.[Dab].[Dab].T}$PEPTIDE1,PEPTIDE1,5:R3-11:R2$$$V2.0” displayed an isolated yield of 9%.

Turning to “FA5-Lys-A2-Lys-Dab(*)-Asn-Lys-C2-H7-Lys-*”, the isolated yield stood at 11%.

“FA5-A3-Lys-Asn-Dab(*)-Lys-H2-Lys-C3-Lys-*” displayed an isolated yield of 22%.

In the case of “PEPTIDE1{[FA11].[A3].P.K.[Dab].N.G.[H12].K.S.K}$PEPTIDE1,PEPTIDE1,5:R3-11:R2$$$V2.0”, the isolated yield was determined as 20%.

Substance FA5-C2-Tyr-Lys-Dab(*)-Lys-Arg-C2-Lys-* registered an isolated yield of 10%.

In turn, “PEPTIDE1{[FA3].[A3].K.N.[Dab].[C3].N.A.[H10].K}$PEPTIDE1,PEPTIDE1,5:R3-10:R2$$$V2.0” had an isolated yield of 17%.

Turning to “PEPTIDE1{[FA2].K.[A5].K.[Dab].[C2].N.R.[H12].K}$PEPTIDE1,PEPTIDE1,5:R3-10:R2$$$V2.0”, the isolated yield came out at 16%.

In the case of “FA5-C3-Val-A6-Dab(*)-C1-Lys-Lys-P3-Lys-*”, the isolated yield is on record as 16%.

On to “PEPTIDE1{[FA1].[A3].S.[C2].[Dab].S.K.[H6].K.K.K}$PEPTIDE1,PEPTIDE1,5:R3-11:R2$$$V2.0”, for which the isolated yield is on record as 6%.

For the substance “PEPTIDE1{[FA4].K.Y.K.[Dab].K.Q.K.K}$PEPTIDE1,PEPTIDE1,5:R3-9:R2$$$V2.0”, the isolated yield turned out to be 7%.

Substance “PEPTIDE1{[FA2].[A2].K.S.[Dab].[C2].[H10].K.[H6].[C2].K}$PEPTIDE1,PEPTIDE1,5:R3-11:R2$$$V2.0” displayed an isolated yield of 4%.

On to “PEPTIDE1{[FA3].[A8].V.K.N.[Dab].[C2].[P1].K.K}$PEPTIDE1,PEPTIDE1,6:R3-10:R2$$$V2.0”, for which the isolated yield is listed as 8%.

Regarding “FA10-A2-C1-C2-Dab(*)-Lys-Asn-Lys-Gly-Lys-*”, the isolated yield is on record as 5%.

In turn, “PEPTIDE1{[FA8].[A8].K.N.[Dab].N.[H2].K.[C2].K}$PEPTIDE1,PEPTIDE1,5:R3-10:R2$$$V2.0” displayed an isolated yield of 29%.

Substance “PEPTIDE1{[FA5].[A7].[C3].Q.[Dab].[C1].Q.K.K}$PEPTIDE1,PEPTIDE1,5:R3-9:R2$$$V2.0” had an isolated yield of 15%.

Substance FA4-A2-C3-C2-Dab(*)-Arg-Gln-C2-H9-Lys-* registered an isolated yield of 3%.

Regarding “FA2-A2-Arg-Asn-Dab(*)-Ser-C2-Lys-Arg-Lys-*”, the isolated yield is on record as 39%.

The substance “PEPTIDE1{[FA8].[A2].K.K.N.[Dab].[C3].P.[P1].K}$PEPTIDE1,PEPTIDE1,6:R3-10:R2$$$V2.0” returned an isolated yield of 23%.

Regarding “FA7-H4-C3-A6-Dab(*)-C2-Lys-Ser-Lys-C1-Lys-*”, the isolated yield turned out to be 6%.

Substance “FA10-A3-Lys-C2-Dab(*)-Asn-C2-Lys-Val-Lys-*” came in with an isolated yield of 22%.

Substance “FA2-A3-C2-Asn-Arg-Dab(*)-Lys-C1-Lys-Lys-*” displayed an isolated yield of 10%.

For “PEPTIDE1{[FA3].[A6].K.N.[Dab].[C2].[C2].[C1].K.K}$PEPTIDE1,PEPTIDE1,5:R3-10:R2$$$V2.0”, the isolated yield worked out at 52%.

“PEPTIDE1{[FA12].[A8].K.N.[Dab].N.[H2].K.[C2].K}$PEPTIDE1,PEPTIDE1,5:R3-10:R2$$$V2.0”: the isolated yield is reported as 6%.

The substance FA11-A2-Lys-Asn-Dab(*)-C2-Arg-C9-Lys-* gave an isolated yield of 22%.

As for “PEPTIDE1{[FA10].K.Y.K.[Dab].Q.N.K.K}$PEPTIDE1,PEPTIDE1,5:R3-9:R2$$$V2.0”, the isolated yield is given as 10%.

Regarding “PEPTIDE1{[FA3].[C3].G.[A2].[Dab].K.K.[P1].N.K}$PEPTIDE1,PEPTIDE1,5:R3-10:R2$$$V2.0”, the isolated yield turned out to be 15%.

Take “PEPTIDE1{[FA4].[A8].K.N.[Dab].N.[C2].K.P.K}$PEPTIDE1,PEPTIDE1,5:R3-10:R2$$$V2.0”: the isolated yield was 24%.

Regarding “PEPTIDE1{[FA11].[A2].[H12].N.[Dab].S.K.[C1].N.K}$PEPTIDE1,PEPTIDE1,5:R3-10:R2$$$V2.0”, the isolated yield is recorded as 24%.

Turning to “FA7-A3-Gly-Arg-Dab(*)-H2-Asn-Lys-C3-Lys-*”, the isolated yield worked out at 7%.

“FA11-A7-Lys-Asn-Dab(*)-H2-Lys-C3-C2-Lys-*” came in with an isolated yield of 10%.

Substance “FA2-A2-Lys-H3-Dab(*)-Lys-Asn-Lys-C2-C2-Lys-*” came in with an isolated yield of 22%.

As for “PEPTIDE1{[FA2].[A2].K.N.[Dab].[C2].S.S.[H7].[C1].K}$PEPTIDE1,PEPTIDE1,5:R3-11:R2$$$V2.0”, the isolated yield is reported as 9%.

“PEPTIDE1{[FA2].[A2].[C1].N.K.[Dab].S.K.[C1].K}$PEPTIDE1,PEPTIDE1,6:R3-10:R2$$$V2.0” returned an isolated yield of 31%.

Substance “FA4-Val-C2-A1-Dab(*)-Lys-Gly-Lys-C3-Lys-*” had an isolated yield of 19%.

In turn, “FA12-A3-Lys-C2-Dab(*)-Asn-C2-Lys-Val-Lys-*” had an isolated yield of 28%.

The substance “PEPTIDE1{[FA2].[A3].[C1].N.K.[Dab].N.K.[C2].K}$PEPTIDE1,PEPTIDE1,6:R3-10:R2$$$V2.0” displayed an isolated yield of 22%.
